A mixed list of measured activities; the numbers were collected in NIAID ChemDB.

Shared fields: whole-cell or culture tests; organism: HIV-1; cells: MT-4; endpoint: inhibition

Conditions beyond the fields shown may differ between rows. Percent inhibition refers to the dose given; in toxicity tests it is the harm to the cells. An empty or dashed field is not shown.

compound | strain or isolate | mutations | method | dose | value
CCCCCCCCCCCCCC(=O)OC[C@@H](COP(=O)(O)OC[C@@H]1CC[C@H](n2ccc(N)nc2=O)O1)OC(=O)CCCCCCCCCCCCC | IIIB |  | ELISA | 10 µM | 97%
CC(C)Nc1cccnc1N1CCN(C(=O)c2cc3cc(NS(C)(=O)=O)ccc3[nH]2)CC1 | HXBE30(RT-P236L) | RT-P236L | antigen | 1 µM | 90%
CCCCCCCCCCCCCC(=O)OC[C@@H](COP(=O)(O)OC[C@@H]1CC[C@H](n2cc(C)c(=O)[nH]c2=O)O1)OC(=O)CCCCCCCCCCCCC | IIIB |  | ELISA | 10 µM | 97%
COc1cc(O)c2c(c1)C(=O)c1c(cc3c(c1O)-c1c(cc(C)c(C(=O)NC(C)C(=O)O)c1O)[C@H](OC1OC(C)C(N)C(O)C1O)[C@H]3O)C2=O | IIIB |  | antigen | 30 µg/mL | 20%
NC12CC3CC(CC(C3)C1)C2 | LAV |  |  | 100 µg/mL | 99.9%
Nc1ccn([C@H]2CC[C@@H](CO)O2)c(=O)n1 | IIIB |  | ELISA | 10 µM | 95%
CN(Cc1cc(Br)cc(Br)c1N)C1CCCCC1 | LAV |  |  | 100 µg/mL | 0%
CC1(C)[C@@H](O[C@H]2O[C@H](C(=O)O)[C@@H](O)[C@H](O)[C@H]2O[C@@H]2O[C@H](C(=O)O)[C@@H](O)[C@H](O)[C@H]2O)CC[C@]2(C)[C@H]3C(=O)C=C4[C@@H]5C[C@@](C)(C(=O)O)CC[C@]5(C)CC[C@@]4(C)[C@]3(C)CC[C@@H]12 |  |  |  | 500 µg/mL | 18.2%
COC(=O)[C@@H](C)NC(=O)c1c(C)cc2c(c1O)-c1c(cc3c(c1O)C(=O)c1cc(OC)cc(O)c1C3=O)[C@H](O)[C@H]2O[C@@H]1O[C@H](C)[C@H](O)[C@H](O[C@@H]2OC[C@@H](O)[C@H](O)[C@H]2O)[C@H]1O | IIIB |  | antigen | 30 µg/mL | <10%
CC(C)[C@H](NC(=O)c1ccccn1)C(=O)N[C@@H](Cc1ccccc1)[C@H](O)[C@H](O)[C@H](Cc1ccccc1)NC(=O)[C@@H](NC(=O)c1ccccn1)C(C)C | NL4-3 | PR-I84V | p24 | 48 µM | 90%
CN=C1CN(c2ccccc2)Cc2nc(Cl)ccc2N1 | BRU |  | p24 | 10 µg/mL | 43.1%
COc1cc(O)c2c(c1)C(=O)c1c(cc3c(c1O)-c1c(cc(C)c(C(=O)N[C@H](C)C(=O)O)c1O)[C@H](O[C@@H]1O[C@H](CO)[C@H](NC(C)=O)[C@H](O)[C@H]1O)[C@H]3O)C2=O | IIIB |  | antigen | 30 µg/mL | <10%
Cc1cn([C@H]2C[C@H](F)[C@@H](CO)O2)c(=O)[nH]c1=O | 121-2(PRE-AZT) |  | RT activity | 0.026 µM | 95%
CN1C(=O)CN(c2ccccc2)Cc2nc(Cl)ccc21 | BRU |  | syncytia | 7.5 µg/mL | 100%
COc1cc(O)c2c(c1)C(=O)c1c(cc3c(c1O)-c1c(cc(C)c(C(=O)N[C@H](C)C(=O)O)c1O)[C@H](O[C@@H]1O[C@H](C)[C@H](N)[C@H](O[C@@H]4OC[C@@H](O)[C@H](O)[C@@H]4O)[C@H]1O)[C@H]3O)C2=O | IIIB |  | antigen | 3 µg/mL | 17%
CCNCC(O)c1cccc(O)c1 | LAV |  |  | 100 µg/mL | 0%
COC(=O)[C@@H](C)NC(=O)c1c(C)cc2c(c1O)-c1c(cc3c(c1O)C(=O)c1cc(OC)cc(O)c1C3=O)[C@H](O)[C@H]2O[C@@H]1O[C@H](CO)[C@H](N)[C@H](O)[C@H]1O | IIIB |  | antigen | 10 µg/mL | 30%
Cc1cn([C@H]2C[C@H](N=[N+]=[N-])[C@@H](CO)O2)c(=O)[nH]c1=O | IIIB |  | p24 | 0.0039 µM | 55.06%
CC(C)(C)NCC(O)c1ccc(O)c(CO)c1 | LAV |  |  | 100 µg/mL | 0%
CC(=O)Nc1ccc(OC(=O)c2ccc(N=C(N)N)cc2)cc1 |  |  | XTT / p24 | 10 µg/mL | 25%
CN1CCN(CCCN2c3ccccc3Sc3ccc(Cl)cc32)CC1 | LAV |  |  | 10 µg/mL | 99.6%
S=C1CN(c2ccccc2)Cc2nc(Cl)ccc2N1 | BRU |  | syncytia | 5 µg/mL | 100%
CCCCCCCCCCCCCC(=O)OC[C@@H](COP(=O)(O)OC[C@@H]1CC[C@H](n2cnc3c(N)ncnc32)O1)OC(=O)CCCCCCCCCCCCC | IIIB |  | ELISA | 1 µM | 74%

For reference, 2 entries again:

compound	strain or isolate	mutations	method	dose	value
COC(=O)[C@@H](C)NC(=O)c1c(C)cc2c(c1O)-c1c(cc3c(c1O)C(=O)c1cc(OC)cc(O)c1C3=O)[C@H](O)[C@H]2O[C@@H]1O[C@H](C)[C@H](O)[C@H](O[C@@H]2OC[C@@H](O)[C@H](O)[C@H]2O)[C@H]1O	IIIB		antigen	30 µg/mL	<10%
CN1C(=O)CN(c2ccccc2)Cc2nc(Cl)ccc21	BRU		syncytia	7.5 µg/mL	100%